Measurements from US10988703B2, “Metal working fluid” (Italmatch SC, LLC, priority 2019, dated 2021).

Assay: IP 287 test method for rust prevention characteristics of water mix metal working fluids
Details: test amine solutions in 200 ppm water, 2 hours contact with cast iron chips

| Structure (SMILES) | minimum concentration needed to produce a completely stain free piece of filter paper |
| --- | --- |
| CCCCC(O)C(N)CC (stereo not shown) [3-amino-4-octanol] | 1.0% |
| NCC1CCCC(CN)C1 (stereo not shown) [1,3-bis(aminomethyl)cyclohexane] | 0.5% |
| NCCO [monoethanolamine] | 0.5% |
| CCCC(N)CN (stereo not shown) [1,2-diaminopentane] | 0.5% |
